# In the oligonucleotide strings, read from the 5' end, every base follows the letter of its sugar. An asterisk marks phosphorothioate; unmarked linkages are phosphodiester. Other units and linkages are bracketed, terminal groups are in braces. A string of capitals states the bases alone. d = 2'-deoxy (DNA)
# Test system: recombinant S protein
# Design: species or system SARS-CoV-2
# Settings: in vivo
substance,measurement,value
CpG-2722 (DNA dG*dT*dT*dG*dT*dC*dG*dT*dT*dT*dT*dT*dT*dG*dT*dC*dG*dT*dT),anti-S protein IgG titer vs vehicle control,significantly higher anti-S protein IgG titer than that induced by the vehicle control

# Reference: patent US20240115681A1 (priority 2022, published 2024)
